PubChem BioAssay AID504761 | Drosophila RNAi Screening Center – 2011
The deposit covers about 22,000 reagents; shown is an unselected part of those that have a named target and a result. Of all reagents, 116 (0.52%) are marked active. 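Calls depend on retest data that are not deposited; infection was ranked per plate without normalising between plates; the unit of the infection score is not given.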 Raw values are not corrected between plates. A plus sign joins genes that one reagent is predicted to hit. The record does not give: the amount of reagent, the time to read-out.

Screen: 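Insect host genes that dengue virus relies on to spread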 (primary screen)
System: D.Mel-2 cells from Drosophila
Reagents: long dsRNA against Drosophila genes
Conditions: infection with dengue virus type 2; dose and infection time not stated
Measured: 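Cells stained for dengue envelope protein and imaged; percent of infected cells per well on duplicate plates, ranked by infection, with stained nuclei counted for cell number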
Scale: infection score: higher = more virus-infected cells; cell count: higher = more cells in the well
Rule for the call: 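Low infection ranks in the two replicates (chance level up to 0.065) followed by a retest with a 1.5-fold or larger significant decrease, p below 0.05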
Meaning of the calls: active = confirmed: knock-down lowers infection; inactive = not picked or not confirmed

| gene knocked down | amplicon | infection score, replicate 1 | infection score, replicate 2 | cell count, replicate 1 | cell count, replicate 2 | outcome |
| --- | --- | --- | --- | --- | --- | --- |
| CG13255 | DRSC11702 | 9.52 | 9.79 | 6736 | 6321 | inactive |
| Trc8 | DRSC15437 | 7.36 | 2.32 | 5679 | 5910 | inactive |
| Trc8 | DRSC28575 | 3.83 | 0.58 | 1252 | 171 | inactive |
| slmb | DRSC17056 | 2.15 | 2.76 | 5578 | 6491 | inactive |
| CG31266 | DRSC15747 | 1.5 | 4.21 | 6659 | 6952 | inactive |
| CG8993 | DRSC08616 | 1.05 | 3.02 | 6928 | 6585 | inactive |
| CG8993 | DRSC27318 | 9 | 3.66 | 6343 | 6304 | inactive |
| msn | DRSC07990 | 1.13 | 1.39 | 6364 | 5884 | inactive |
| msn | DRSC08498 | 6.49 | 2.54 | 6298 | 6074 | inactive |
| msn | DRSC25188 | 9.45 | 2.42 | 5924 | 6366 | inactive |
| CG18418 | DRSC08535 | 7.46 | 7.23 | 6433 | 6498 | inactive |
| CG18418 | DRSC25732 | 20.9 | 22.6 | 6569 | 5680 | inactive |
| Mur18B | DRSC20063 | 5.24 | 3.37 | 6356 | 6851 | inactive |
| Mur18B | DRSC28610 | 17.4 | 16.1 | 5221 | 5792 | inactive |
| CG1468 | DRSC17946 | 1.58 | 10.2 | 6847 | 6289 | inactive |
| CG1468 | DRSC25538 | 24.2 | 25.6 | 6193 | 5890 | inactive |
| ptc | DRSC05117 | 8 | 2.71 | 6548 | 6357 | inactive |
| ptc | DRSC07669 | 15.1 | 10.2 | 2622 | 6451 | inactive |
| CG42594 | DRSC18408 | 2.27 | 6.18 | 6080 | 6098 | inactive |
| CG42594 | DRSC22978 | 0.72 | 10.2 | 7098 | 6740 | inactive |
| CG42594 | DRSC25767 | 9.79 | 3.41 | 5998 | 5901 | inactive |
| CG42594 | DRSC26285 | 8.04 | 2.69 | 6120 | 6138 | inactive |
| CG42594 | DRSC28979 | – | 20 | 394 | 5377 | inactive |
| Tapdelta | DRSC05946 | 11.2 | 16.6 | 6489 | 6602 | inactive |
| NimC4 | DRSC01945 | 15.5 | – | 4742 | 583 | inactive |
| RalGPS | DRSC06941 | 6.58 | 7.44 | 6546 | 5884 | inactive |
| RalGPS | DRSC27139 | 13.5 | 8.68 | 5214 | 6219 | inactive |
| CG17005 | DRSC02556 | 9.39 | 18.8 | 4612 | 5275 | inactive |
| CG6693 | DRSC28189 | 6.92 | 19.9 | 5824 | 5963 | inactive |
| CG11269 | DRSC04094 | 20.9 | 8.01 | 6368 | 6189 | inactive |
| Dscam1 | DRSC07407 | 5.92 | 9.69 | 5579 | 6399 | inactive |
| Dscam1 | DRSC21562 | 1.95 | 4.44 | 6262 | 6733 | inactive |
| Dscam1 | DRSC22383 | 1.21 | 2.7 | 6223 | 6045 | inactive |
| Dscam1 | DRSC29101 | 6.3 | 21 | 5092 | 5690 | inactive |
| PpV | DRSC18700 | 6.65 | 7.49 | 5235 | 4341 | inactive |
| PpV | DRSC23307 | 8.71 | 13.4 | 5256 | 6155 | inactive |
| PpV | DRSC29344 | 17.1 | 8.69 | 3776 | 3995 | inactive |
| Sf3b3 | DRSC08370 | 5.09 | 6.31 | 2336 | 1188 | inactive |
| CG45067 | DRSC08414 | 3.83 | 0.8 | 6266 | 6143 | inactive |
| CG45067 | DRSC27186 | 14 | 10.4 | 6917 | 6317 | inactive |
| CG9970 | DRSC08644 | 1.35 | 5.65 | 6215 | 5802 | inactive |
| Dlic | DRSC19824 | 2.33 | 1.13 | 5102 | 5120 | inactive |
| CG3347 | DRSC00597 | 15.2 | 4.74 | 6700 | 6459 | inactive |
| CG8093 | DRSC07078 | 10 | 24.7 | 7099 | 4979 | inactive |
| meso18E | DRSC20351 | 2.93 | 2.04 | 5899 | 6327 | inactive |
| meso18E | DRSC25315 | 2.58 | 1.25 | 6391 | 6239 | inactive |
| or | DRSC04329 | 0.49 | 19.9 | 406 | 4647 | inactive |
| or | DRSC29241 | 9.22 | 12.1 | 4383 | 5295 | inactive |
| Sumo | DRSC03611 | 14 | 9.21 | 3228 | 3704 | inactive |
| Jhbp4 | DRSC14222 | 2.2 | 10.3 | 6625 | 6306 | inactive |
| CG11679 | DRSC19415 | 1.28 | 5.63 | 6881 | 6727 | inactive |
| CG31407 | DRSC12761 | 1.41 | 1.48 | 5877 | 5756 | inactive |
| ATPsynCF6 | DRSC14092 | 3.31 | 8.76 | 6441 | 6476 | inactive |
| MED23 + CG3700 | DRSC04406 | 7.92 | 5.63 | 6695 | 7032 | inactive |
| MED23 + CG3700 | DRSC04407 | 9.66 | 12 | 6555 | 6545 | inactive |
| MED23 + CG3700 | DRSC24669 | 12.4 | 1.52 | 6532 | 6726 | inactive |
| MED23 + CG3700 | DRSC25453 | 4.44 | 2.87 | 6798 | 6588 | inactive |
| CG17768 + LSm-4 | DRSC02845 | 31.1 | 21.8 | 3383 | 4250 | inactive |
